Experimental data: ChEMBL document CHEMBL5620356, “Sulfur-fluoride exchange (SuFEx)-enabled lead discovery of AChE inhibitors by fragment linking strategies” (Eur J Med Chem, 2023)

Chains of the proteins cited; added tags and fusions are not shown. Lines headed by an entry give the natural chain unless they say otherwise; changes in a name come on top.
UniProt O42275: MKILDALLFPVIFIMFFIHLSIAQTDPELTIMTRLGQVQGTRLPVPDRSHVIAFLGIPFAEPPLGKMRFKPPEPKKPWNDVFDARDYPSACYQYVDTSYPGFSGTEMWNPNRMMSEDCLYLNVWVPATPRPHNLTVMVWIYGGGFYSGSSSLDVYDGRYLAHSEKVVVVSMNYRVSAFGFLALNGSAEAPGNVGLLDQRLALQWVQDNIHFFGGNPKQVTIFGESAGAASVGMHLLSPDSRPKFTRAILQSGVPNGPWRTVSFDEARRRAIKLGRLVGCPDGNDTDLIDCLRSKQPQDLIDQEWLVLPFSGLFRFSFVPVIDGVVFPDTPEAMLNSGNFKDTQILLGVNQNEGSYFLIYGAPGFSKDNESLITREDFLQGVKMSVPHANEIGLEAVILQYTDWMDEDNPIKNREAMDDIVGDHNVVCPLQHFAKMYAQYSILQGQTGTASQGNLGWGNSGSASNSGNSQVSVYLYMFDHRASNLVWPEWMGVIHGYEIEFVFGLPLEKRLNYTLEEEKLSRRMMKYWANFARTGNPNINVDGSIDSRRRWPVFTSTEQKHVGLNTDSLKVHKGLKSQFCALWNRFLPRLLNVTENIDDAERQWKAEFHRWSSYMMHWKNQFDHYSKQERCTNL

Biological target: Acetylcholinesterase (Electrophorus electricus) (UniProt O42275)
Test: Inhibition of electric eel AChE using acetylthiocholine iodide as substrate at 20 uM preincubated for 20 mins followed by substrate addition and measured after 20 mins by DTNB reagent based Ellman's method relative to control
Conditions: time 40.0 min

Question: O=C1N[C@@H]2C[C@@H](S(=O)(=O)F)[C@@H]2c2ccccc21 was tested. Which inhibition did it give?
Answer: Its inhibition is less than 50%.
